Compound potency records, mixed from different reports. Data source: NIAID ChemDB in PubChem.

All rows: growth or infection tests; agent: HIV-1; read by: luciferase / reporter gene; read-out: EC50

ECn: concentration that inhibits the pathogen or its effect by n%. Conditions beyond the fields shown may differ between rows. Blank or dashed fields: not listed here. a–b is a range or a potency band.

structure | cell line | strain or isolate | result
CCCC(C(=O)O)c1c(C)nc2ccc(Cl)cc2c1-c1ccc(OC)cc1 | C8166 | - | <20 µM
Cc1ccc(S(=O)(=O)N2CCC3(CC2)OCCn2c3nc(C(=O)NCc3ccc(F)cc3-n3ncnc3C)c(O)c2=O)cc1 | MT-2 | NL4-3 | 0.001–0.01 µM
C[C@@H]1CN(C(=O)c2ccccc2)CCN1C(=O)C(=O)c1c[nH]c2c(NC(=O)/C=C/C(=O)O)cccc12 | HeLa | - | <1 µM
O=C(NCc1ccc(F)cc1)c1nc2n(c(=O)c1O)CCOC21CCN(C(=O)c2ccccc2)CC1 | MT-2 | NL4-3 | 0.001–0.01 µM
C[C@@H]1CN(C(=O)c2ccccc2)CCN1C(=O)C(F)(F)c1ccc2ccccc2c1 | HeLa | - | <1 µM
C[C@@H]1CN(C(=O)c2ccccc2)CCN1C(=O)C(=O)c1c[nH]c2c(NC(=O)[C@H]3OC(C)(C)O[C@@H]3C(=O)O)cccc12 | HeLa | - | <1 µM
CC1CN(C(=O)c2ccccc2)CCN1C(=O)C(=O)c1ccc2c(O)cccc2n1 | HeLa | - | <1 µM
CCOC(C(=O)O)c1c(C)nc2ccc(Cl)cc2c1-c1ccc(CC)cc1 | C8166 | - | <20 µM
O=C(Cc1cccc2ccccc12)N1CCN(C(=O)c2ccccc2)CC1 | HeLa | - | 1–5 µM
Cc1nc2ccc(Cl)cc2c(-c2ccc(CCF)cc2)c1[C@H](OC(C)(C)C)C(=O)O | C8166 | - | <20 µM
CC1CN(C(=O)c2ccccc2)CCN1C(C#N)C(=O)c1ccc2ccccc2n1 | HeLa | - | <1 µM
CCc1ccc(-c2c(C(OC(C)(C)C)C(=O)O)c(C)nc3ccccc23)cc1 | C8166 | - | <20 µM
Cc1ncnn1-c1cc(F)ccc1CNC(=O)c1nc2n(c(=O)c1O)CCOC21CCN(S(C)(=O)=O)C1 | MT-2 | NL4-3 | 0.01–0.1 µM
C[C@@H]1CN(C(=O)c2ccccc2)CCN1C(=O)C(=O)c1c[nH]c2c(NC(=O)CNC(C)(C)C)cccc12 | HeLa | - | <1 µM
CCCC(C(=O)O)c1c(-c2ccc(Cl)cc2)c2cc(Cl)ccc2n(Cc2ccncc2)c1=O | C8166 | - | <20 µM
CN(C)C(=O)C(=O)N1CCC2(C1)OCCn1c2nc(C(=O)NCc2ccc(F)cc2)c(O)c1=O | MT-2 | NL4-3 | 0.01–0.1 µM
Cc1cc(COC(C(=O)O)c2c(C)nc3ccc(Br)cc3c2-c2ccc(Cl)cc2)no1 | C8166 | - | <20 µM
C=C(C(=O)N1CCN(C(=O)c2ccccc2)C[C@H]1C)c1ccc2cc(OC)ccc2c1 | HeLa | - | <1 µM
COC(=O)C(=O)N1CCC2(CC1)OCCn1c2nc(C(=O)NCc2ccc(F)cc2)c(O)c1=O | MT-2 | NL4-3 | 0.01–0.1 µM
C[C@@H]1CN(C(=O)c2ccccc2)CCN1C(=O)C(=O)c1c[nH]c2c(NC(=O)NCCCCCCNC(=O)Nc3cccc(B(O)O)c3)cccc12 | HeLa | - | <1 µM
C=C(C(=O)N1CCN(C(=O)c2ccccc2)CC1)c1ccc2cc(OC)ccc2c1 | HeLa | - | <1 µM
Cc1ncnn1-c1cc(F)ccc1CNC(=O)c1nc2n(c(=O)c1O)CCCOC21CCN(C(=O)OCc2ccccc2)CC1 | MT-2 | NL4-3 | 0.001–0.01 µM
N#CC(C(=O)c1cc2ccccc2cn1)N1CCN(C(=O)c2ccccc2)CC1 | HeLa | - | <1 µM
CNC(=O)C(O)C(O)C(=O)Nc1cccc2c(C(=O)C(=O)N3CCN(C(=O)c4ccccc4)C[C@H]3C)c[nH]c12 | HeLa | - | <1 µM
CCOc1ccc(-c2c(C(OC(C)C)C(=O)O)c(C)nc3ccc(Cl)cc23)cc1C | C8166 | - | <20 µM
COC(=O)N1CCC2(CC1)OCCn1c2nc(C(=O)NCc2ccc(F)cc2-n2cncn2)c(O)c1=O | MT-2 | NL4-3 | 0.001–0.01 µM
CC1CN(C(=O)c2ccccc2)CCN1C(=O)Cc1ccc2ccccc2c1 | HeLa | - | 1–5 µM
C=Cc1ccc(-c2c(C(CCC)C(=O)O)c(C)nc3ccc(Cl)cc23)cc1 | C8166 | - | <20 µM
CNC(=O)c1nc2n(c(=O)c1O)CCOC21CCN(S(=O)(=O)c2cc(F)ccc2C)CC1 | MT-2 | NL4-3 | ≥0.1 µM
CC1CN(C(=O)c2ccccc2)CCN1C(C#N)C(=N)c1ccc2c(O)cccc2n1 | HeLa | - | <1 µM
CC(=O)N1CCC2(CC1)COCCn1c2nc(C(=O)NCc2ccc(F)cc2-n2ncnc2C)c(O)c1=O | MT-2 | NL4-3 | ≥0.1 µM
CCOC(=O)CCCNC(=O)Nc1cccc2c(C(=O)C(=O)N3CCN(C(=O)c4ccccc4)C[C@H]3C)c[nH]c12 | HeLa | - | <1 µM

The last 3 rows once more:

structure,cell line,strain or isolate,result
CC1CN(C(=O)c2ccccc2)CCN1C(C#N)C(=N)c1ccc2c(O)cccc2n1,HeLa,-,<1 µM
CC(=O)N1CCC2(CC1)COCCn1c2nc(C(=O)NCc2ccc(F)cc2-n2ncnc2C)c(O)c1=O,MT-2,NL4-3,≥0.1 µM
CCOC(=O)CCCNC(=O)Nc1cccc2c(C(=O)C(=O)N3CCN(C(=O)c4ccccc4)C[C@H]3C)c[nH]c12,HeLa,-,<1 µM